Results of unrelated studies side by side (data: NIAID ChemDB).

Shared fields: whole-cell or culture tests; organism: HIV-1; cell line: CEM + CEM TK-; measure: EC50

Rows are shuffled and stem from different studies.

structure	strain	method	result
CC(=O)SCCOP(=O)(OCCSC(C)=O)OC[C@@H]1CC[C@H](n2cc(C)c(=O)[nH]c2=O)O1	LAI	RT activity	0.5 µM
Cc1cn([C@H]2C[C@H](N=[N+]=[N-])[C@@H](COP(=O)(OCCSC(=O)C(C)(C)C)OCCSC(=O)C(C)(C)C)O2)c(=O)[nH]c1=O	LAI	RT activity	0.011 µM
Cc1cn(C2CC(N=[N+]=[N-])C(COP(=O)(OC[C@H]3O[C@@H](n4cc(C)c(=O)[nH]c4=O)C[C@@H]3N=[N+]=[N-])C(=O)OCCSC(=O)C(C)(C)C)O2)c(=O)[nH]c1=O	LAI	RT activity	>10 µM
Cc1cn([C@H]2C[C@H](N=[N+]=[N-])[C@@H](COP(=O)(OCCSC(=O)C(C)(C)O)OCCSC(=O)C(C)(C)O)O2)c(=O)[nH]c1=O	LAI	RT activity	9.2 µM
CC(=O)SCCOP(=O)(OCCSC(C)=O)OC[C@@H]1CC[C@H](n2cnc3c(=O)[nH]cnc32)O1	LAI	RT activity	0.3 µM
CC(C)(C)C(=O)SCCOC(=O)P(=O)(OCCSC(=O)C(C)(C)C)OCCSC(=O)C(C)(C)C	LAI	RT activity	8.2 µM
Cc1cn([C@H]2C[C@H](N=[N+]=[N-])[C@@H](COP(=O)(O)OCc3ccccc3)O2)c(=O)[nH]c1=O		cytopathic effect	>100 µM
Cc1cn([C@H]2C[C@H](N=[N+]=[N-])[C@@H](CO)O2)c(=O)[nH]c1=O	IIIB		>100 µM
Cc1cn([C@H]2C=C[C@@H](COP(=O)(SCCOC(=O)C(C)(C)C)SCCOC(=O)C(C)(C)C)O2)c(=O)[nH]c1=O			0.0059 µM
CC(C)(C)C(=O)SCCOP(=O)(OCCSC(=O)C(C)(C)C)OC[C@@H]1CC[C@H](n2cnc3c(N)ncnc32)O1	LAI	RT activity	0.0001 µM
Cc1cn([C@H]2C[C@H](N=[N+]=[N-])[C@@H](CO)O2)c(=O)[nH]c1=O		MTT	>100 µM
Cc1cn([C@H]2C=C[C@@H](COP(=O)(O)O)O2)c(=O)[nH]c1=O			24 µM
CCCCCCCCOC(=O)P(=O)(O)OC[C@H]1O[C@@H](n2cc(C)c(=O)[nH]c2=O)C[C@@H]1N=[N+]=[N-]	LAI	RT activity	>100 µM
CCCCNP(=O)(OC[C@@H]1O[C@H](n2cc(C)c(=O)[nH]c2=O)C[C@H]1N=[N+]=[N-])OC[C@H]1O[C@@H](n2cc(C)c(=O)[nH]c2=O)C[C@@H]1N=[N+]=[N-]	LAI	RT activity	70 µM
Nc1nc(=O)n([C@@H]2CC[C@H](CO)O2)cc1F	LAI	RT activity	0.07 µM
CC(C)(C)C(=O)SCCOP(=O)(OCCSC(=O)C(C)(C)C)OC[C@@H]1CC[C@H](n2cnc3c(N)ncnc32)O1	LAI	RT activity	0.0011 µM
Cc1cn([C@H]2C[C@H](N=[N+]=[N-])[C@@H](COP(=O)(OCCSC(=O)C(C)(C)C)OCCSC(=O)C(C)(C)C)O2)c(=O)[nH]c1=O	LAI	RT activity	0.011 µM
CC(=O)SCCOP(=O)(OCCSC(C)=O)OC[C@@H]1CC[C@H](n2cnc3c(N)ncnc32)O1	LAI	RT activity	0.00077 µM
Cc1cn([C@H]2C[C@H](N=[N+]=[N-])[C@@H](CO)O2)c(=O)[nH]c1=O	LAI	RT activity	>100 µM
Nc1ncnc2c1ncn2[C@H]1CC[C@@H](CO)O1	LAI	RT activity	1.1 µM
Cc1cn([C@H]2C[C@H](N=[N+]=[N-])[C@@H](CO)O2)c(=O)[nH]c1=O		cytopathic effect / MTT	>100 µM
Cc1cn([C@H]2CC[C@@H](CO)O2)c(=O)[nH]c1=O	LAI	RT activity	>100 µM
Nc1ncnc2c1ncn2[C@H]1CC[C@@H](CO)O1			0.43 µM
CC(C)(C)C(=O)SCCOP(=O)(OCCSC(=O)C(C)(C)C)OC[C@@H]1CC[C@H](n2cnc3c(N)ncnc32)O1	LAI	RT activity	0.0011 µM
Cc1cn([C@H]2C=C[C@@H](COP(=O)(SCCOC(=O)C(C)(C)C)SCCOC(=O)C(C)(C)C)O2)c(=O)[nH]c1=O	LAI	RT activity	0.0044 µM
CC(=O)SCCOP(=O)(OCCSC(C)=O)OC[C@@H]1CC[C@H](n2cnc3c(=O)[nH]cnc32)O1	LAI	RT activity	0.3 µM
Cc1cn([C@H]2C[C@H](N=[N+]=[N-])[C@@H](COP(=O)(O)C(=O)OCCSC(=O)C(C)(C)C)O2)c(=O)[nH]c1=O	LAI	RT activity	53 µM
CC(C)(C)C(=O)SCCCCOP(=O)(OCCCCSC(=O)C(C)(C)C)OC[C@@H]1CC[C@H](n2cnc3c(N)ncnc32)O1	LAI	RT activity	>10 µM
Cc1cn([C@H]2C=C[C@@H](COP(=O)(O)OCc3ccccc3)O2)c(=O)[nH]c1=O		cytopathic effect	0.3 µM
COC(=O)[C@H](C)NP(=O)(OC[C@H]1O[C@@H](n2cc(C)c(=O)[nH]c2=O)C[C@@H]1N=[N+]=[N-])Oc1ccc(Br)cc1	IIIB	RT activity	0.037–0.039 µM
CCCOC(=O)C(C)NP(=O)(OC[C@@H]1C=C[C@H](n2cc(C)c(=O)[nH]c2=O)O1)Oc1ccccc1	IIIB	cytopathic effect / trypan blue	0.047 µM
Cc1cn([C@H]2C[C@H](N=[N+]=[N-])[C@@H](CO)O2)c(=O)[nH]c1=O		cytopathic effect	>100 µM

For reference, 2 entries again:

structure	strain	method	result
Cc1cn([C@H]2C[C@H](N=[N+]=[N-])[C@@H](COP(=O)(O)C(=O)OCCSC(=O)C(C)(C)C)O2)c(=O)[nH]c1=O	LAI	RT activity	53 µM
Nc1ncnc2c1ncn2[C@H]1CC[C@@H](CO)O1			0.43 µM

Two numbers with a dash give a range or band. ECn is the concentration giving n% inhibition of infection, replication or growth. Blank or dashed fields: not listed here.